A mixed list of measured activities; the numbers were collected in NIAID ChemDB.

Shared fields: enzyme or target tests; agent: HIV-1; target: Protease; measure: Ki

Blank or dashed fields: not listed here.

CC(C)[C@H](NC(=O)[C@@H](NC(=O)C(Cc1ccccc1)CP(=O)(O)C(Cc1ccccc1)NC(=O)[C@@H](NC(=O)[C@@H](NC(=O)OC(C)(C)C)C(C)C)C(C)C)C(C)C)C(N)=O ; value: 0.0004 µM
ON=C1N(Cc2ccccc2)[C@H](Cc2ccccc2)[C@H](O)[C@@H](O)[C@@H](Cc2ccccc2)N1Cc1ccccc1 ; value: 0.042 µM
CCCC1(CCc2ccccc2)CC(O)=C(C(c2cccc(NS(=O)(=O)c3ccccn3)c2)C(C)(C)C)C(=O)O1 ; value: 0.00009 µM
CC[C@H](C)C(NC(=O)C1CCCN1C[C@H](O)[C@@H]1CSSC[C@H](NC(C)=O)C(=O)NCC(=O)N[C@@H](CC(N)=O)C(=O)N1)C(=O)N[C@H](C(N)=O)C(C)C ; value: 8.1 µM
CCCCNC(=O)[C@H](C)C[C@H](O)[C@H](CC1CCCCC1)NC(=O)[C@@H](NC(=O)[C@@H](NC(=O)OC(C)(C)C)[C@@H](C)O)[C@@H](C)CC ; value: 0.019 µM
CC(C)[C@H](NC(=O)OCc1ccccc1)C(=O)N[C@@H](Cc1ccccc1)[C@H](O)[C@@H](CO)[C@H](Cc1ccccc1)NC(=O)OC(C)(C)C ; value: 0.0004 µM
O=S1(=O)N(Cc2cccc(-c3cccs3)c2)[C@H](COc2ccccc2)[C@H](O)[C@@H](O)[C@@H](COc2ccccc2)N1Cc1cccc(-c2cccs2)c1 ; value: 2.4 µM
CCCCNC(=O)[C@H](C)C[C@H](O)[C@H](CC1CCCCC1)NC(=O)[C@@H](NC(=O)[C@H](Cc1c[nH]c2ncccc12)NC(=O)OC(C)(C)C)C(C)C ; value: 0.067 µM
CCC(C1=C(O)CC(CC(C)C)(CC(C)C)OC1=O)c1cccc(NS(=O)(=O)c2ccc(C#N)cn2)c1 ; value: 0.00005 µM
C=CCN1C(=O)N(CC=C)[C@H](Cc2ccccc2)[C@H](O)[C@@H](O)[C@H]1Cc1ccccc1 ; value: 0.003 µM
CCCC1(CCC)CC(O)=C(C(CC)c2cccc(NS(=O)(=O)c3ccc(C#N)cn3)c2)C(=O)O1 ; value: 0.0001 µM
O=c1oc2ccccc2c(O)c1CCCOc1ccccc1 ; value: ~1 µM
CC[C@H](C)[C@H](NC(=O)[C@H](C(C)C)[C@@H](O)[C@H](O)[C@H](CC1CCCCC1)NC(=O)[C@H](Cc1cnc[nH]1)NC(=O)COc1cccc2ccccc12)C(=O)NCc1cccnc1 ; value: <0.001 µM
N#CN=C1N(CC2CCCC2)[C@H](Cc2ccccc2)[C@H](O)[C@@H](O)[C@@H](Cc2ccccc2)N1CC1CCCC1 ; value: 0.0011 µM
CCCCCCCCCCCCCCCC(=O)N[C@H](C(=O)N[C@H](C(=O)N[C@@H](CO)C(=O)N[C@@H](Cc1ccc(O)cc1)C(=O)N[C@@H](CCC(=O)O)C(=O)N[C@@H](CC(C)C)C(=O)O)C(C)C)[C@@H](C)O ; value: 0.2 µM
CCCCNC(=O)[C@H](C)C[C@H](O)[C@H](CC1CCCCC1)NC(=O)[C@@H](NC(=O)[C@H](CCCN=C(N)N)NC(=O)OC(C)(C)C)C(C)C ; value: 0.075 µM
C/C(=N\O)c1cccc(CN2[C@H](COc3ccccc3)[C@H](O)[C@@H](O)[C@@H](COc3ccccc3)N(Cc3cccc(/C(C)=N/O)c3)S2(=O)=O)c1 ; changes: PR-G48V L90M ; value: 0.11 µM
CC(C)(C)NC(=O)[C@@H]1CCCCN1C[C@@H](O)[C@H]1Cc2ccc(cc2)OCCCCCC(=O)N[C@@H](CC(N)=O)C(=O)N1 ; value: 0.05 µM
Cn1cc(C[C@H]2NC(=O)N(CC(CCN3CCC(c4ccccc4)CC3)c3cccc(Cl)c3)C2=O)c2ccccc21 ; value: 0.02 µM
CNC(=O)[C@@H](NC(=O)[C@H](OCc1ccccc1)[C@H](O)[C@@H](O)[C@@H](OCc1ccccc1)C(=O)N[C@H]1c2ccccc2C[C@H]1O)C(C)C ; changes: PR-V82A ; value: 0.00015 µM
O=C1N[C@H](Cc2csc3ccccc23)C(=O)N1CC(CCN1CCC(c2ccccc2)CC1)c1cccc(Cl)c1 ; value: 0.16 µM
CC(C)(O)c1cccc(CN2C(=O)N(Cc3cccc(C(C)(C)O)c3)[C@H](Cc3ccccc3)[C@H](O)[C@@H](O)[C@H]2Cc2ccccc2)c1 ; strain: RF ; value: 0.000067 µM
COC(=O)[C@@H](NC(=O)[C@@H](NC(=O)[C@H](C)C[C@H](O)[C@H](Cc1ccccc1)NC(=O)[C@H](C)NC(=O)[C@H](C)NC(=O)OCc1ccccc1)C(C)C)C(C)C ; value: 0.0007 µM
CCC(c1ccccc1)c1c(O)c2ccccc2oc1=O ; value: 1 µM
CN1[C@H](COc2ccccc2)[C@H](O)[C@@H](O)[C@@H](COc2ccccc2)N(C)S1(=O)=O ; changes: PR-V82A ; value: 3 µM
CCC(c1ccccc1)c1c(O)cc(CCc2ccccc2)oc1=O ; value: 0.5 µM
O=C(N[C@H]1c2ccccc2C[C@H]1O)[C@H](Cc1ccccc1)C[C@H](O)CN1C(=O)C2(CCCCC2)C[C@@H]1Cc1ccccc1 ; value: 0.0008 µM
O=S1(=O)N(Cc2ccc(-c3cccs3)cc2)[C@H](COc2ccccc2)[C@H](O)[C@@H](O)[C@@H](COc2ccccc2)N1Cc1ccc(-c2cccs2)cc1 ; changes: PR-G48V L90M ; value: 18 µM
COC(=O)[C@H]([C@@H](O)[C@H](Cc1ccccc1)NC(=O)[C@@H](NC(=O)OCc1ccccc1)C(C)C)[C@H](Cc1ccccc1)NC(=O)OC(C)(C)C ; value: 0.112 µM
O=S1(=O)N(Cc2cccc(-c3cccs3)c2)[C@H](COc2ccccc2)[C@H](O)[C@@H](O)[C@@H](COc2ccccc2)N1Cc1cccc(-c2cccs2)c1 ; changes: PR-G48V L90M ; value: 18 µM
CCCCNC(=O)[C@H](C)C[C@H](O)[C@H](CC1CCCCC1)NC(=O)[C@@H](NC(=O)[C@H](CCC(N)=O)NC(=O)OC(C)(C)C)C(C)(C)C ; value: 0.0563 µM

The first 3 rows once more:

smiles | strain | changes | value
CC(C)[C@H](NC(=O)[C@@H](NC(=O)C(Cc1ccccc1)CP(=O)(O)C(Cc1ccccc1)NC(=O)[C@@H](NC(=O)[C@@H](NC(=O)OC(C)(C)C)C(C)C)C(C)C)C(C)C)C(N)=O | - | - | 0.0004 µM
ON=C1N(Cc2ccccc2)[C@H](Cc2ccccc2)[C@H](O)[C@@H](O)[C@@H](Cc2ccccc2)N1Cc1ccccc1 | - | - | 0.042 µM
CCCC1(CCc2ccccc2)CC(O)=C(C(c2cccc(NS(=O)(=O)c3ccccn3)c2)C(C)(C)C)C(=O)O1 | - | - | 0.00009 µM

Rows are shuffled and stem from different studies.